Results of unrelated studies side by side (data: NIAID ChemDB).

Shared fields: tests in culture; agent: Candida albicans; measure: inhibition

Percent inhibition refers to the dose given; in toxicity tests it is the harm to the cells. Conditions beyond the fields shown may differ between rows. "inactive" is the filed call at that dose; no cut-off is given.

Clc1ccc(COC(Cn2ccnc2)c2ccc(Cl)cc2Cl)c(Cl)c1 ; dose: 4 µg/mL ; setting: 24 h ; strain or isolate: 439 isolates ; value: 84%
CS(=O)(=O)c1ccc(NC(=O)Oc2c(Cl)cc(Cl)cc2Cl)cc1 ; dose: 25 µg/mL ; value: inactive
Cc1ccc(-c2cn(-c3ccc(F)cc3)c(C)c2C(=O)O)cc1 ; dose: 73.33 µg/mL ; strain or isolate: 40 strains ; value: 80%
O=C(O)CCc1ccccc1 ; dose: 1000 µg/mL ; strain or isolate: MY1055 ; value: 29.4%
COc1ccc(C(=O)Cc2ccc(Cl)cc2)cc1 ; dose: 256 µg/mL ; strain or isolate: 28 strains ; value: 0%
CCCOc1ccc(SCC#CCCN2CCN(C)CC2)cc1 ; dose: 78 µg/mL ; strain or isolate: CNCM 1180-79 ; value: 50%
CCC(C(=O)c1ccc(OC)cc1)c1ccc(Cl)cc1 ; dose: 256 µg/mL ; strain or isolate: 28 strains ; value: 0%
Cc1ccc(-c2cn(-c3ccc(Cl)cc3)c(C)c2C(=O)O)cc1 ; dose: 36.5 µg/mL ; strain or isolate: 40 strains ; value: 65%
CCCOc1ccc(SCC#CCN2CCOCC2)cc1 ; dose: 78 µg/mL ; strain or isolate: CNCM 1180-79 ; value: 50%
O=C1C=C(S(=O)c2ccccc2)C(=O)c2ccccc21 ; dose: 0.2 µg/mL ; value: 38.6%
O=C1C(O)C(CO)OC(Oc2c[nH]c3ccccc23)C1O ; dose: 400 µg/mL ; strain or isolate: ATCC 10231 ; value: 49.1%
CCCOc1ccc(SCC#CCN2CCCCC2)cc1 ; dose: 78 µg/mL ; strain or isolate: CNCM 1180-79 ; value: 50%
CC(=O)N1CCN(c2ccc(OC[C@H]3CO[C@](Cn4ccnc4)(c4ccc(-c5ccccc5)cc4)O3)cc2)CC1 ; dose: 256 µg/mL ; strain or isolate: 44 strains ; value: 38.7%
Cc1ccc(-c2cn(-c3ccc(Br)cc3)c(C)c2C(=O)O)cc1 ; dose: 158.33 µg/mL ; strain or isolate: 40 strains ; value: 85.6%
Cc1c(C(=O)N(CCO)CCO)cc(-c2ccc([N+](=O)[O-])cc2)n1-c1ccc(Cl)cc1Cl ; dose: 200 µg/mL ; strain or isolate: 20 strains ; value: 0%
CS(=O)(=O)OC[C@H]1CO[C@](Cn2ccnc2)(c2ccc(-c3ccccc3)cc2)O1 ; dose: 256 µg/mL ; strain or isolate: 44 strains ; value: 71.8%
CCCCCCCCCCn1c(-c2ccc([N+](=O)[O-])cc2)cc(C(=O)N(CCO)CCO)c1C ; dose: 200 µg/mL ; strain or isolate: 20 strains ; value: 0%
O=[N+]([O-])c1ccc(Sc2c(S(=O)c3ccccc3)c(O)c3ccccc3c2O)cc1 ; dose: 0.2 µg/mL ; value: 42.2%
Cc1c(C(=O)O)c(-c2ccc(Cl)cc2)cn1-c1ccc(Cl)cc1 ; dose: 24.9 µg/mL ; strain or isolate: 40 strains ; value: 2.5%
C=CC(C/C(=N/OS(=O)(=O)O)SC1OC(CO)C(O)C(O)C1O)OC(=O)CC1C(=O)Nc2ccccc21 ; dose: 400 µg/mL ; strain or isolate: ATCC 10231 ; value: 77.3%
Cc1c(C(=O)O)c(-c2ccc(F)cc2)cn1-c1ccc(Br)cc1 ; dose: 16.77 µg/mL ; strain or isolate: 40 strains ; value: 2.5%
COc1ccc(C(Cc2ccc(Cl)cc2)n2ccnc2)cc1 ; dose: 256 µg/mL ; strain or isolate: 28 strains ; value: 100%
Nc1[nH]c(=O)ncc1F ; dose: 5 µg/mL ; value: 80%
O=C1C(Nc2ccccc2)=C(S(=O)c2ccccc2)C(=O)c2ccccc21 ; dose: 0.2 µg/mL ; value: 41.4%
Cc1ccc(-c2cn(-c3ccc(C)cc3)c(C)c2C(=O)O)cc1 ; dose: 93.79 µg/mL ; strain or isolate: 40 strains ; value: 95%
COc1ccc(Sc2c(S(=O)c3ccccc3)c(O)c3ccccc3c2O)cc1 ; dose: 0.2 µg/mL ; value: 46.5%
CCCCOc1ccc(SCC#CI)cc1 ; dose: 78 µg/mL ; strain or isolate: CNCM 1180-79 ; value: 100%
COc1ccc(C(O)Cc2ccc(Cl)cc2)cc1 ; dose: 256 µg/mL ; strain or isolate: 28 strains ; value: 100%
Cc1c(C(=O)N(CCO)CCO)cc(-c2ccc([N+](=O)[O-])cc2)n1-c1ccc(Cl)cc1 ; dose: 200 µg/mL ; strain or isolate: 20 strains ; value: 0%
OC[C@H]1CO[C@](Cn2ccnc2)(c2ccc(-c3ccccc3)cc2)O1 ; dose: 256 µg/mL ; strain or isolate: 44 strains ; value: 97.5%
COc1ccc(C(Cc2ccc(Cl)cc2Cl)C(c2ccc(OC)cc2)n2cnnc2)cc1 ; dose: 256 µg/mL ; strain or isolate: 28 strains ; value: 0%
C=CC(C/C(=N/OS(=O)(=O)O)SC1OC(CO)C(O)C(O)C1O)OC(=O)CC1(O)C(=O)Nc2ccccc21 ; dose: 400 µg/mL ; strain or isolate: ATCC 10231 ; value: 79.1%
NCCCC[C@H](NC(=O)[C@@H](N)CCCCN)C(=O)N[C@@H](CCC(N)=O)C(=O)N[C@@H](CCCN=C(N)N)C(=O)O ; dose: 50 µM ; strain or isolate: ATCC 10231 ; value: 0%
COC(=O)[C@H]1[C@@H]2C[C@@H](O[C@@H]3O[C@H](C)[C@@H](O)[C@H](N)[C@@H]3O)/C=C/C=C/C=C/C=C/C=C/C=C/C=C/[C@H](C)[C@@H](O)[C@H](C)[C@H](C)OC(=O)C[C@H](O)C[C@H](O)[C@@H](O)CC[C@H](O)C[C@H](O)C[C@](O)(C[C@@H]1O)O2 ; dose: 5 µg/mL ; value: 100%
O=C1C(Sc2ccc(Br)cc2)=C(Sc2ccc(Br)cc2)C(=O)c2ccccc21 ; dose: 0.2 µg/mL ; value: 43.2%
CCCCOc1ccc(SCC#CCN2CCOCC2)cc1 ; dose: 78 µg/mL ; strain or isolate: CNCM 1180-79 ; value: 75%
C[C@@H](c1ncncc1F)[C@](O)(Cn1cncn1)c1ccc(F)cc1F ; dose: 5 µg/mL ; value: 100%